Source: patent US4331670A (priority 1979, dated 1982)

What was measured:
[1] = test system: Plasmopara viticola; test: Test 10: protective value on cucumber inoculated with Plasmopara viticola; assay type: in vivo, Plasmopara viticola (cucumber plant, Suyo); conditions: 500 ppm, 20 ml sprayed; lesions six days after inoculation
[2] = test system: Rhizoctonia solani; test: Test 2: protective value on rice plants inoculated with Rhizoctonia solani; assay type: in vivo, Rhizoctonia solani (rice plant, Chukyo Asahi); conditions: 100 ppm, 20 ml sprayed; lesion length after 5 days
[3] = test system: Sphaerotheca fuliginea; test: Test 4: protective value on cucumber inoculated with Sphaerotheca fuliginea; assay type: in vivo, Sphaerotheca fuliginea (cucumber plant, Suyo); conditions: 500 ppm, 10 ml sprayed; lesions ten days after inoculation

[N-]=[N+]=Nc1c(C(F)(F)F)cc([N+](=O)[O-])c(Nc2ncc(C(F)(F)F)cc2Cl)c1[N+](=O)[O-]
Protective value [1]: 100% | Preventive value [2]: 95% | Protective value [3]: 100%
